This assay addresses PRV (Zika virus). In words: cell-based or functional assay.

B1: Anti-ZIKV clone DT168(A)-D1_A-9E (A9E) (antibody, V domains shown)
VH: EVQLLESGGGLVQAGGSLRLSCAASGFTFDTYAMSWVRQPPGKGLEWVSAISTGGGSKYYADSVKGRLTISRDNSQNTLYLQMSSLRADDTAVYYCARSDFWRSGRYYYYMDVWGRGTTVTVSS
VL: QSALTQPASVSASPGQSITISCTGTHFDIVDYDYLSWYQQHPGNAPKLLIYGVSNRPSGVSSRFSGSKSGNTASLTISGLQAEDEGDYYCSSYSISSTLLVFGGGTKLSV
notes: also called ZV1; A9E mAb
On to B1, for which the “FRNT50 (focus reduction neutralization on Vero cells)” value worked out at 35.8 ng/mL.

B2: Anti-ZIKV clone DT168(A)-D1_G-9E (G9E) (antibody, V domains shown)
VH: EVQLVESGGGVVQPGRSLRLSCVASGFAFSNYHMHWVRQAPGKGLEWVAIIWDDGSDQYYADSVKGRFTISRDNSKNTLFLQMNRLRAEDTALYYCVGGSSAYNGDNGWREAASLDDWGQGTLVTVSS
VL: QSALTQPASVSGSPGQSITIFCSGSSNDVGGYNYVSWYQQYPGKVPKLLIYDVNSRPSGVSNRFSGSKSGNTASLTISGLQAEDEADYYCSSYTSRRTWVFGGGTIVTVL
notes: also called ZV2; G9E mAb
B2: the “FRNT50 (focus reduction neutralization on Vero cells)” value came out at 10.3 ng/mL.
